Source: patent US20040157280A1, “Antibody mediated ozone generation” (priority 2001, published 2004)
Entries after “also recorded” stand apart in the source; their conditions may differ.

Key:
[1] = Oxidation of indigo carmine 1 and ^18O incorporation into 2 by different reactive oxygen species; type: physicochemical; conditions: for Reaction to form 2: oxidant added to indigo carmine 1 (1 mM), PB pH 7.4
[2] = Oxygen isotope experiments (TCEP oxide mass spectra); type: biochemical; conditions: ^16O2, H2^18O PB, UV

Row | Compound | Reaction to form 2 [1] | ^18O incorporation into 2 ([1]; H2^18O (>95%) PB) | cleavage of the double bond of 1 to yield isatin sulfonic acid 2 ([1]; NaOCl 2 mM, PBS pH 7.4, 1 100 μM) | ^18O incorporation from H2^18O into H2O2 (in words) [2]
1 | OO [Clone H2O2, hydrogen peroxide] | no | – | – | –
2 | potassium superoxide [HO2•/O2•^−] | no | – | – | –
3 | O=O [^1O2^*, singlet oxygen] | yes | No | – | –
4 | OCl [HOCl, Hypochlorous acid] | no | – | did not cleave the double bond; also recorded: does not cleave the double bond | –
5 | Cc1c[nH]c2ccccc12 [3-methylindole] | – | – | – | negligible ^18O incorporation; also recorded: does not include oxygen incorporation from H2^18O
